Earlier results in paper PMC11232401, “Characterization of antimalarial activity of artemisinin-based hybrid drugs” (Antimicrobial Agents and Chemotherapy, 2024).

Tested on: J774 cell line
Design: method as in PMID 31290221, PMID 34832911, PMID 38559731
Conditions: CC50/IC50, CC50 in J774 cell line; cited from earlier work

## C[C@@H]1CC[C@H]2[C@@H](C)C(=O)O[C@@H]3O[C@@]4(C)CC[C@@H]1[C@]32OO4 [ART, artemisinin]
  Selectivity index: 7463
